Reference: US20230265170A1
Read-outs that look alike come from different tables or passages of the source.

Columns and labels:
Experiment in all cases: cell-based or functional assay
[1] = biological target: SARS-CoV-2 Omicron BA.1 spike (S) protein of the live isolate (SARS-CoV-2)
[2] = biological target: SARS-CoV-2 Victoria spike (S) protein (SARS-CoV-2)
[3] = biological target: SARS-CoV-2 Victoria spike (S) protein (Wuhan + S247R) (SARS-CoV-2)
[4] = biological target: SARS-CoV-2 spike (S) protein, Victoria strain (SARS-CoV-2)
[5] = biological target: SARS-CoV-2 Omicron BA.1.1 spike (S) protein (SARS-CoV-2)
[6] = biological target: SARS-CoV-2 spike (S) protein, Victoria strain (Wuhan + S247R) (SARS-CoV-2)
[7] = biological target: SARS-CoV-2 spike (S) protein, Omicron BA.1 (SARS-CoV-2) (UniProt P0DTC2)
[8] = biological target: SARS-CoV-2 spike (S) protein, Omicron BA.1 (SARS-CoV-2)
[9] = biological target: SARS-CoV-2 spike (S) protein, Omicron BA.1.1 (BA.1 + R346K) (SARS-CoV-2)
[10] = biological target: SARS-CoV-2 spike (S) protein, Omicron BA.2 (SARS-CoV-2) (UniProt P0DTC2)
[11] = biological target: SARS-CoV-2 spike (S) protein, Omicron BA.3 (SARS-CoV-2)
[12] = biological target: SARS-CoV-2 spike (S) protein, Omicron BA.1.1 (SARS-CoV-2) (UniProt P0DTC2)
[13] = biological target: SARS-CoV-2 spike (S) protein, Omicron BA.2 + N460K (SARS-CoV-2) (UniProt P0DTC2)
[14] = biological target: SARS-CoV-2 spike (S) protein, Omicron BA.2.3.20 (SARS-CoV-2) (UniProt P0DTC2)
[15] = biological target: SARS-CoV-2 spike (S) protein, Omicron BA.2.75 (SARS-CoV-2) (UniProt P0DTC2)
[16] = biological target: SARS-CoV-2 spike (S) protein, Omicron BA.4.6 (SARS-CoV-2) (UniProt P0DTC2)
[17] = biological target: SARS-CoV-2 spike (S) protein, Omicron BA.2.75.2 (SARS-CoV-2) (UniProt P0DTC2)
[18] = biological target: SARS-CoV-2 spike (S) protein, Omicron BA.4/5 (SARS-CoV-2) (UniProt P0DTC2)
[19] = biological target: SARS-CoV-2 spike (S) protein, Omicron BA.1.1 (SARS-CoV-2) (UniProt P0DTC2); remark: listed apart in the source
[20] = biological target: SARS-CoV-2 spike (S) protein, Omicron BA.2 (SARS-CoV-2) (UniProt P0DTC2); remark: listed apart in the source
[21] = biological target: SARS-CoV-2 spike (S) protein, Omicron BA.2.75 (SARS-CoV-2) (UniProt P0DTC2); remark: listed apart in the source
[22] = biological target: SARS-CoV-2 spike (S) protein, Omicron BA.3 (SARS-CoV-2) (UniProt P0DTC2)
[23] = biological target: SARS-CoV-2 spike (S) protein, Omicron BA.4/5 (SARS-CoV-2) (UniProt P0DTC2); remark: listed apart in the source
[24] = biological target: SARS-CoV-2 spike (S) protein, Victoria strain (SARS-CoV-2); remark: listed apart in the source
[25] = biological target: SARS-CoV-2 Alpha (B.1.1.7) spike (S) protein (SARS-CoV-2) (UniProt P0DTC2)

AZD1061 (antibody)
IC50 (ug/ml), authentic virus [1]: 3.49 µg/mL
IC50 (ug/ml), authentic virus [2]: 0.013 µg/mL
IC50, pseudoviral neutralization [3]: 2 ng/mL
IC50, pseudovirus [4]: 2 ng/mL

AZD8895 (antibody)
IC50 (ug/ml), authentic virus [1]: 1.15 µg/mL
IC50 (ug/ml), authentic virus [5]: 6.08 µg/mL
IC50 (ug/ml), authentic virus [2]: 0.005 µg/mL
IC50, pseudoviral neutralization [3]: 1 ng/mL
IC50, pseudovirus [4]: 1 ng/mL
IC50 (pseudovirus neutralization) [6]: 1 ng/mL

Omi-03
IC50 against PV [7]: 5 ng/mL

Omi-12
IC50 against PV [7]: 2 ng/mL

Known Antibody G (ADG20)
IC50, pseudovirus [8]: 348 ng/mL
IC50, pseudovirus [9]: 253 ng/mL
IC50, pseudovirus [10]: > 10000 ng/mL
IC50, pseudovirus [11]: > 10000 ng/mL
IC50, pseudovirus [6]: 3 ng/mL

Known Antibody D (AZD8895)
IC50, pseudovirus [8]: 246 ng/mL
IC50, pseudovirus [9]: 100 ng/mL
IC50, pseudovirus [11]: > 10000 ng/mL
IC50, pseudovirus [6]: 1 ng/mL

Omi-42 (antibody)
IC50 against PV [12]: 6 ng/mL
IC50 [13]: 7 ng/mL
IC50 against PV [13]: 7 ng/mL
IC50 (pseudovirus neutralization) [14]: 28 ng/mL
IC50 [15]: 3 ng/mL
IC50 (pseudovirus neutralization) [15]: 3 ng/mL
IC50 against PV [15]: 3 ng/mL
IC50 (pseudovirus neutralization) [16]: 10 ng/mL
IC50 against PV [4]: 13 ng/mL
IC50 (pseudovirus neutralization) [6]: 33 ng/mL

Known Antibody C (AZD1061)
IC50, pseudovirus [8]: 308 ng/mL
IC50, pseudovirus [9]: > 10000 ng/mL
IC50, pseudovirus [10]: 8 ng/mL
IC50, pseudovirus [6]: 2 ng/mL

Omi-42
IC50 against PV [7]: 7 ng/mL

Ly-CoV1404 (antibody)
IC50, pseudoviral neutralization [3]: 1 ng/mL
IC50 (pseudovirus neutralization) [10]: 1 ng/mL
IC50 (pseudovirus neutralization) [14]: 13 ng/mL
IC50 (pseudovirus neutralization) [15]: 22 ng/mL
IC50 (pseudovirus neutralization) [17]: 1 ng/mL
IC50 (pseudovirus neutralization) [16]: 1 ng/mL
IC50 (pseudovirus neutralization) [18]: 1 ng/mL
IC50 (pseudovirus neutralization) [6]: 1 ng/mL
IC50, pseudovirus [19]: 1 ng/mL
IC50, pseudovirus [20]: 2 ng/mL
IC50, pseudovirus [21]: 2 ng/mL
IC50, pseudovirus [22]: 2 ng/mL
IC50, pseudovirus [23]: 2 ng/mL
IC50, pseudovirus [24]: 1 ng/mL

Omi-29 (antibody)
IC50 (pseudovirus neutralization) [16]: 170 ng/mL
IC50 (pseudovirus neutralization) [18]: 396 ng/mL
IC50 against PV [18]: 396 ng/mL
IC50 against PV [4]: 14 ng/mL
IC50 (pseudovirus neutralization) [6]: 14 ng/mL

Ly-CoV16 (antibody)
IC50 (ug/ml), authentic virus [2]: 0.034 µg/mL
IC50, pseudovirus [4]: 14 ng/mL
IC50 (pseudovirus neutralization) [6]: 14 ng/mL

Ly-CoV-555 (antibody)
IC50 (ug/ml), authentic virus [25]: 0.009 µg/mL
IC50 (ug/ml), authentic virus [2]: 0.006 µg/mL
IC50, pseudovirus [4]: 2 ng/mL

Known Antibody A (REGN 10987)
IC50, pseudovirus [8]: > 10000 ng/mL
IC50, pseudovirus [9]: > 10000 ng/mL
IC50, pseudovirus [11]: > 10000 ng/mL
IC50, pseudovirus [6]: 2 ng/mL

Known Antibody I (Ly-CoV-555)
IC50, pseudovirus [8]: > 10000 ng/mL
IC50, pseudovirus [9]: > 10000 ng/mL
IC50, pseudovirus [10]: > 10000 ng/mL
IC50, pseudovirus [11]: > 10000 ng/mL
IC50, pseudovirus [6]: 2 ng/mL

Known Antibody H (ADG30)
IC50, pseudovirus [8]: > 10000 ng/mL
IC50, pseudovirus [9]: > 10000 ng/mL
IC50, pseudovirus [10]: > 10000 ng/mL
IC50, pseudovirus [11]: > 10000 ng/mL
IC50, pseudovirus [6]: 14 ng/mL
